The values that follow are results of earlier work, collected in patent US20080145918A1, “Method for the Detoxification of a Hazardous Compound” (published 2008).

The data set relates to experimental animal. To be noted: oral toxicity, dosage at which 50% of the used experimental animal died; cited from earlier work.
As a reminder, the LD50 is the dose expected to kill half of the subjects tested. For the compound `C[As](=O)(O)O`, the LD50 is recorded as 1,800 mg/kg.

For the compound Inorganic arsenic(III(valency)), the LD50 was 4.5 mg/kg.

Regarding arsenobetaine, the LD50 is 10000 mg/kg.

arsenocholine: the LD50 is recorded as 6,000 mg/kg.

For inorganic arsenic(V(valency)), the 50% lethal dose (LD50) was 14 to 18 mg/kg.

As to trimethylarsineoxide, the LD50 is reported as 10,600 mg/kg.
